Experimental data: patent US9617289B2, “RSV antiviral compounds” (JANSSEN R&D IRELAND, priority 2012, dated 2017)

These compounds were tested on HeLa cells (assay: Cytotoxicity in HeLa cells (ATP content, ATPlite kit); SI calculated as CC50/EC50). Details: SI is calculated as CC50/EC50, three days.
Type: cell-based

| Compound | SI_TOX-HELA_wt |
| --- | --- |
| N#CCCCn1c(CN2C(=O)C3(CCN(C(=O)C(O)(C(F)(F)F)C(F)(F)F)CC3)c3ccncc32)nc2cc(Cl)ccc21 [Compound 181, 4-[5-Chloro-2-({2′-oxo-1-[3,3,3-trifluoro-2-hydroxy-2-(trifluoromethyl)propanoyl]spiro[piperidine-4,3′-pyrrolo[2,3-c]pyridin]-1′(2′H)-yl}methyl)-1H-benzimidazol-1-yl]butanenitrile] | 271188 |
| CC(C)(O)C(=O)N1CC2(C1)C(=O)N(Cc1nc3cc(Cl)ccc3n1CCCCF)c1ccccc12 [Compound 183, 1′-{[5-Chloro-1-(4-fluorobutyl)-1H-benzimidazol-2-yl]methyl}-1-(2-hydroxy-2-methylpropanoyl)spiro[azetidine-3,3′-indol]-2′(1′H)-one] | 1295538 |
| O=C(NS(=O)(=O)N1CCC2(CC1)C(=O)N(Cc1cc3cc(Cl)ccc3n1CCCCF)c1cnccc12)C1CC1 [Compound 184, N-[(1′-{[5-Chloro-1-(4-fluorobutyl)-1H-indol-2-yl]methyl}-2′-oxo-1′,2′-dihydro-1H-spiro[piperidine-4,3′-pyrrolo[2,3-c]pyridin]-1-yl)sulfonyl]cyclopropanecarboxamide] | 215909 |

Some results come without the dose or concentration used.
